pIC50: −log10 of the molar value.
Key:
[1] = system: NA of A/Panama/2007/99 (H3N2); test: Binding stability of NA inhibitors to virus NA; parameters: species or system influenza A virus (H3N2)
[2] = system: NA of A/New Caledonia/20/99 (H1N1); test: Binding stability of NA inhibitors to virus NA; parameters: species or system influenza A virus (H1N1)
[3] = in vitro; cited from earlier work
NA of B/Mie/1/93 = test: Binding stability of NA inhibitors to virus NA; parameters: species or system influenza B virus
[4] = biological target: NA of Ind3006 (A/Indonesia/UT3006/05, H5N1) (Influenza A virus, UniProt I6YWY9); test: NA activity inhibition assay (MUNANA); format: biochemical; settings: read-out: IC50 (95% confidential interval), mean of duplicate reactions
[5] = compound minus 3 (Oseltamivir carboxylate)
[6] = linear regression of fluorescence 0 to 50000, intercept 0

## CO[C@@H]([C@@H]1OC(C(=O)O)=C[C@H](N=C(N)N)[C@H]1NC(C)=O)[C@H](O)CO
[1]; compound minus 2 (Zanamivir)
  Slope difference: -1.46
[1]; [5]
  Slope difference: -6.32
[1]; compound minus 4 (Peramivir)
  Slope difference: 0.46
[1]; compound minus 5 (Background)
  Slope difference: -48.35
[1]; [6]
  Slope of the dissociation curve: 0.65
[2]; compound minus 2 (Zanamivir)
  Slope difference: -92.66
[2]; [5]
  Slope difference: -125.91
[2]; compound minus 4 (Peramivir)
  Slope difference: 4.34
[2]; compound minus 5 (Background)
  Slope difference: -452.18
[2]; [6]
  Slope of the dissociation curve: 47.44
[3]
  cytotoxicity: limited cytotoxicity
NA of B/Mie/1/93; compound minus 2 (Zanamivir)
  Slope difference: -118.54
NA of B/Mie/1/93; [5]
  Slope difference: -315.65
NA of B/Mie/1/93; compound minus 4 (Peramivir)
  Slope difference: -115.10
NA of B/Mie/1/93; compound minus 5 (Background)
  Slope difference: -888.52
NA of B/Mie/1/93; [6]
  Slope of the dissociation curve: 65.56
[4]
  pIC50: 9.54
